Data as given in PubChem BioAssay AID624099 (ICCB-Longwood, 2012).
Aim: 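Knock-downs relieving repression by E2 of an HPV18 LCR luciferase reporter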 (primary screen). Cells: human C33A cervical carcinoma cells (HPV-negative) stably expressing BPV1 E2 and an HPV18 LCR luciferase reporter. Reagents: siRNA pool against human genes, 40 nM. Timing: 72 h. Detection: 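Per-well luciferase luminescence, z-scored on each plate against the plate mean and SD with control wells left out, then averaged across three replicate plates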. Scale: mean z-score and z-score: higher = stronger reporter signal, weaker E2 silencing. Call rule: 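Mean z ≥ 2 together with z ≥ 2 in two or more of the three replicates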.
The deposit covers about 21,000 reagents; this is a part drawn at random. 497 of them (2.4%) count as active. 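Higher z means weaker E2 silencing; only reporter increases were scored, and knock-downs that hurt cell survival may mask genuine repressor factors.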 Unmarked entries are inactive. No sequences are given here.

target,mean z-score,"z-score, replicate A","z-score, replicate B","z-score, replicate C"
DCLRE1A (DNA cross-link repair 1A),1.17,1.1,1.25,1.16
PPP1R14A (protein phosphatase 1 regulatory inhibitor subunit 14A),0.56,0.48,0.7,0.48
LINC00670 (long independently transcribed non-coding RNA 670),-1.28,-1.25,-1.44,-1.16
GRAMD1A (GRAM domain containing 1A),-0.13,0.39,-0.06,-0.71
DNAJB7 (DnaJ heat shock protein family (Hsp40) member B7),0.16,0.02,0.41,0.05
SDCBP2 (syndecan binding protein 2),1.46,1.64,1.71,1.03
NLRP10 (NLR family pyrin domain containing 10),0.18,-0.2,0.36,0.4
SPATS1 (spermatogenesis associated serine rich 1),2.11,2.58,1.81,1.93
MANSC1 (MANSC domain containing 1),0.44,0.24,0.56,0.51
CETP (cholesteryl ester transfer protein),0.09,0.36,0.12,-0.21
ATR (ATR checkpoint kinase),1.01,0.78,1.11,1.13
LINC00663 (long independently transcribed non-coding RNA 663),0.93,0.62,1.38,0.78
BPIFA1 (BPI fold containing family A member 1),-0.04,0.45,-0.39,-0.18
CCL24 (C-C motif chemokine ligand 24),0.6,0.58,0.45,0.77
THNSL2 (threonine synthase like 2),-1.03,-1.3,-1.07,-0.71
TTLL1 (TTL family tubulin polyglutamylase complex subunit L1),-0.49,-0.61,-0.65,-0.22
HS6ST2 (heparan sulfate 6-O-sulfotransferase 2),0.34,0.11,0.44,0.46
EPHA5 (EPH receptor A5),0.13,0.59,0.17,-0.38
TCTA (T cell leukemia translocation altered),0.02,0.18,0.18,-0.29
FNDC8 (fibronectin type III domain containing 8),0.2,0.15,0.27,0.17
DOC2A (double C2 domain alpha),1.22,1.37,0.95,1.36
H4C5 (H4 clustered histone 5),0.15,0.14,0.11,0.19
OIP5 (Opa interacting protein 5),0.35,0.15,0.34,0.55

Individual results from the list:
ATR (ATR checkpoint kinase), mean z-score = 1.01
Value of CCL24 (C-C motif chemokine ligand 24) under “z-score, replicate A”: 0.58
